{"sequences": {"note": "The chains behind the UniProt entries cited, without tags or fusion partners. Where a name states a change or a piece, a line headed by the entry shows the natural chain unless it says otherwise.", "UniProt P22303": "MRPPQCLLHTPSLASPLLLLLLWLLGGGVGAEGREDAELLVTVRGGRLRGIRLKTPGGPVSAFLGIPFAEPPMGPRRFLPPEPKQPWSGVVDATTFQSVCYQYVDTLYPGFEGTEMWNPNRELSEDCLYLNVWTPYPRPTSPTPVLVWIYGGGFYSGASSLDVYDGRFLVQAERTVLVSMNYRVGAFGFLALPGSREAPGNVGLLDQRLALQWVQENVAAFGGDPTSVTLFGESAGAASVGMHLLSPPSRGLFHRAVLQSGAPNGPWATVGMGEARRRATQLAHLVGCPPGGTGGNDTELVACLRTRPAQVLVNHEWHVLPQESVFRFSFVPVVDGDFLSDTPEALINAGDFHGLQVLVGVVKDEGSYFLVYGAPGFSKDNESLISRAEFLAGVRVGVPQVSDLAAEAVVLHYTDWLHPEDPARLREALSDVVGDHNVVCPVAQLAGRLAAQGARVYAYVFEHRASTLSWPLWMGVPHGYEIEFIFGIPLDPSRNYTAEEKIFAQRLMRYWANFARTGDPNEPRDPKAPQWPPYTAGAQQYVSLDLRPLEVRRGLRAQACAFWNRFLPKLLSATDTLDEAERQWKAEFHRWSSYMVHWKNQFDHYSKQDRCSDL"}, "source": "patent US12390454B2", "about": "“Use and composition for protection against organophosphorus poisoning” (dated 2025)", "origin": "cited, not measured here", "biological_target": "AChE (Homo sapiens, UniProt P22303)", "details": "primates, cited from earlier work", "note": "Read-outs that look alike come from different tables or passages of the source."}
{"molecule": "CN(C)C(=O)Oc1ccc[n+](C)c1", "values": [{"measurement": "AChE activity in red blood cells inhibited", "setting": "high dose 39.5 μg/kg", "value": 50, "unit": "%"}, {"measurement": "AChE activity in red blood cells inhibited", "setting": "low dose 12.5 μg/kg", "value": 18, "unit": "%"}]}
